Entries after “also recorded” stand apart in the source; their conditions may differ.
Experiment: Amino reactivity of CB-Ring with model molecule benzylamine (HPLC-MS)
Type: physicochemical
Settings: for conjugation efficiency with benzylamine: 5 molar excess of benzylamine, 30 min

| Structure (SMILES) | conjugation efficiency with benzylamine (acetonitrile) [%] | conjugation efficiency with benzylamine (pure water) [%] | conjugation with benzylamine (in words) (control, zwitterionic form as starting material) |
| --- | --- | --- | --- |
| C=C(C)C(=O)OCC1C[N+](C)(C)CC(=O)O1 (stereo not drawn) [CB-Ring, 2-(Methacryloyloxymethyl)-4,4-dimethyl-6-oxomorpholin-4-ium] | 83 | 60 | – |
| C=C(C)C(=O)OCC(O)C[N+](C)(C)CC(=O)[O-] (stereo not drawn) [CB—OH, 2-((2-Hydroxy-3-(methacryloyloxy)propyl)dimethylammonio)acetate] | – | – | no conjugation; also recorded: no formation of CB—OH-benzyl conjugates |

— patent publication US20120269870A1, “SWITCHABLE POLYMERS AND SURFACES WITH REVERSIBLY SWITCHABLE PROPERTIES” (University of Washington through its Center for …, priority 2011, published 2012)
